Here are results for two compounds from PMC9919437 (Molecules, 2023).

Chains of the proteins cited; added tags and fusions are not shown. Residues count along the entry.
UniProt B4EH86, 1-132 limits assumed: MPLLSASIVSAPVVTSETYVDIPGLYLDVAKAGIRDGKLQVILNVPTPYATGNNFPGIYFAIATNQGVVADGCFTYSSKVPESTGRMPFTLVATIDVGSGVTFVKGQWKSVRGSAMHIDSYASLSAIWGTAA

As a reminder, the Kd is the constant that tells how readily two partners part at equilibrium.

Assay [1] addresses T1, BC2L-C-Nt (N-terminal lectin domain of BC2L-C) (Burkholderia cenocepacia, UniProt B4EH86). The settings on record: ITC; cited from earlier work. A general note: Isothermal titration calorimetry measures the heat released or taken up as one component is titrated into another.
Assay [2] has as its target T1, BC2L-C-Nt (N-terminal lectin domain of BC2L-C). Nature of the assay: Isothermal titration calorimetry (ITC) affinity for BC2L-C-Nt. It is filed as binding. As to conditions: 25 °C, 20 mM Tris HCl pH 7.0, 100 mM NaCl, average of at least two independent measurements.

Molecules are shown by their SMILES. Read-outs that look alike come from different tables or passages of the source.

`CO[C@@H]1O[C@@H](C)[C@@H](O)[C@@H](O)[C@@H]1O`: in assay [1], the Kd was 2700 µM.
With `C[C@@H]1O[C@H](NC(=O)c2ccc(-c3cccc(CN)c3)o2)[C@@H](O)[C@H](O)[C@@H]1O` [compound 3], the Kd in assay [2] amounted to 159 µM.
